Compound potency records, mixed from different reports. Data source: NIAID ChemDB in PubChem.

Shared fields: growth or infection tests; organism: Cryptosporidium parvum; read-out: inhibition

An empty or dashed field is not shown. Rows are shuffled and stem from different studies. Inhibition is in % at the dose shown (toxicity tests: loss of growth or viability).

SMILES	dose	cells	value
Cc1ccc2c(c1)C(=O)c1c(cnn1C)C2=O	50 µM	-	77%
O=C1/C(=C/c2cccc(O)c2)Oc2cc(O)ccc21	25 µM	-	19%
Cc1cccc2c1C(=O)c1cnn(C)c1C2=O	100 µM	-	<10%
CCN(CC)CCSc1c2ccccc2nc2cc(Cl)ccc12	50 µg/mL	-	71%
COc1c2c(c(O)c3ccccc13)C(=O)c1cnn(C)c1C2=O	10 µM	-	64%
COc1ccc(/C=C2\Oc3cc(O)ccc3C2=O)cc1OC	10 µM	-	53%
Nc1ccc(CSc2c3ccccc3nc3cc(Cl)ccc23)cc1	50 µg/mL	-	8%
C=C/C=C/c1cc(OC)cc(=O)o1	10 µM	-	13%
CO[C@H]1/C=C/O[C@@]2(C)Oc3c(C)c(O)c4c(O)c(c5c(c4c3C2=O)NC2(CCN(CC(C)C)CC2)N=5)=NC(=O)/C(C)=C\C=C\[C@H](C)[C@H](O)[C@@H](C)[C@@H](O)[C@@H](C)[C@H](OC(C)=O)[C@@H]1C	8 µg/mL	A549	22.9%
CC[C@H]1OC(=O)[C@H](C)[C@@H](O[C@H]2C[C@@](C)(OC)[C@@H](O)[C@H](C)O2)[C@H](C)[C@@H](O[C@@H]2O[C@H](C)C[C@H](N(C)C)[C@H]2O)[C@](C)(O)C[C@@H](C)CN(C)[C@H](C)[C@@H](O)[C@]1(C)O	8 µg/mL	A549	33%
Cc1cc(O)c2c(c1Cl)C(=O)c1cn[nH]c1C2=O	50 µM	-	<10%
COc1cc(/C=C/C=C\c2ccccc2OC)oc(=O)c1	25 µM	-	11%
Cc1[nH]nc2c1C(=O)c1c(O)ccc(O)c1C2=O	10 µM	-	<10%
COc1cc(/C=C2\Oc3cc(O)cc(O[C@@H]4O[C@H](CO)[C@@H](O)[C@H](O)[C@H]4O)c3C2=O)cc(OC)c1O	50 µM	-	93%
CCCCCCSc1c2ccccc2nc2ccccc12	50 µg/mL	-	37%

Again, the opening 2 rows:

Cc1ccc2c(c1)C(=O)c1c(cnn1C)C2=O ; dose: 50 µM ; value: 77%
O=C1/C(=C/c2cccc(O)c2)Oc2cc(O)ccc21 ; dose: 25 µM ; value: 19%